Earlier results on three compounds are cited in article PMC5247677 (Scientific Reports, 2017).

The test system of the series is NaV isoforms. The settings on record: cited from earlier work.

As for `Cn1nccc1-c1ccccc1Oc1ccc(S(=O)(=O)Nc2nccs2)cc1C#N` [PF-04856264], the “selectivity for NaV1.7 (slow inactivated state)” value is recorded as “at least 65 fold”.
Turning to `Nc1[nH]ncc1-c1cc(Cl)ccc1Oc1cc(F)c(S(=O)(=O)Nc2cscn2)cc1Cl` [PF-05089771], the “selectivity for NaV1.7” value is “at least 10 fold”.
As to “ProTx-II: NaV1.7 selective spider peptide from the venom of Thrixopelma pruriens”, the “selectivity for NaV1.7 over NaV1.2–NaV1.8” value is given as “at least 85 fold”.
